## Fitness effects across NS2B and the NS3 protease domain of Zika virus

Protein: NS2B and the protease part of NS3 of Zika virus strain MR766. Positions count along the chain below; NS2B spans 2-131 and NS3 starts at 132.
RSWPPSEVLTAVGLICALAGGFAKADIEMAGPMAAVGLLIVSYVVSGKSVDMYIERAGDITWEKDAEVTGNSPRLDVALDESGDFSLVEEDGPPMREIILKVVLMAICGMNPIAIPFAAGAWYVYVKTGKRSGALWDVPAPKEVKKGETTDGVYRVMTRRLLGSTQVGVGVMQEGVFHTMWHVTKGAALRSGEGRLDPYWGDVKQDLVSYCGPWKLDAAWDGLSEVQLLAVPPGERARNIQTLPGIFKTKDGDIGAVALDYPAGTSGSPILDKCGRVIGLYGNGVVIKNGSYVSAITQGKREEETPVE

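Pools of virus carrying all single amino acid changes were selected for growth in Huh-7.5 cells. Deep sequencing gave the change in frequency of each mutant relative to wild type, averaged over three replicate libraries (two for positions 207-308). The aim was to find sites where inhibitor-binding pockets cannot change.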

The number is log2 of the effect relative to wild type; negative values mean reduced growth, higher values better tolerance. A change reads original residue, position, new residue. This list holds changes to glutamate only. Six mutants with high scores were retested singly and none clearly outgrew wild type, so positive values are not proof of better growth.

S266E read -5.50. G267E gave -5.33. S268E gave -4.33. P269E gave -4.60. I270E read -3.97.

With L271E the assay gave -4.37. With D272E the assay gave -4.05. With K273E the assay gave -2.19. C274E read -4.12. With G275E the assay gave -0.81.

With R276E the assay gave -3.90. V277E read -5.00. I278E gave -4.03. With G279E the assay gave -4.20. L280E read -4.95.

For Y281E the result was -5.06. G282E gave -3.79. N283E read -4.67. For G284E the result was -5.31. For V285E the result was -4.04.

For V286E the result was -5.59. I287E read -3.03. With K288E the assay gave -5.15. N289E read -4.95. G290E read -5.64.

S291E gave -0.89. With Y292E the assay gave -4.21. V293E read -4.80. For S294E the result was -4.79. With A295E the assay gave -5.01.

For I296E the result was -4.31. T297E gave -3.74. With Q298E the assay gave -4.81. With G299E the assay gave -5.62. K300E gave -5.69.

R301E gave -5.18. For T305E the result was 0.44. P306E read -3.09. For V307E the result was -3.03.

The region was split into three libraries (1-103, 104-206, 207-308). The authors count -1 or higher as tolerated. Position 1 is the last residue of NS2A.

Reference: Ni et al. 2025, doi:10.1038/s41467-025-63602-z.